Data on 25 compounds can be found in PubChem BioAssay AID1430 (University of Pittsburgh Molecular Library Screening Center, 2008).

This is a selection; strong and weak results do not stand in their true shares. Activity calls are given as the source filed them.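 The calls were made as follows: active = inhibition of 50% or more in the single-dose primary screen; inactive = inhibition below 50%.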

The assay relates to hexokinase 1 [Trypanosoma brucei]. Kind of assay: Trypanosoma brucei hexokinase 1 inhibitors, primary screen, biochemical, G6PDH-coupled NADH absorbance, MLSCN library (AID 1430). The following applies: recombinant TbHK1, G6PDH-coupled NADH A340; at 10 µM; active compounds read high.
Broadly, the inhibition is the drop in the measured response relative to a control, in per cent. Consider `COP1(=S)c2c(C)nn(CCC#N)c2N=C(c2ccc(F)cc2)N1C` (stereo not given), for which the inhibition is inactive: 4.91%.

As for `O=C(COc1ccccc1)OC1CN2CCC1CC2` (stereo not given), the inhibition is inactive: -3.88%. For the compound `CCOC(=O)c1ccc(NC(=O)C(C)(CCl)SC)cc1` (stereo not given), the inhibition was inactive: -4.42%.

Turning to `CCC(C)N(CC(C)C)C(=S)SC(NC(C)=O)C(Cl)(Cl)Cl` (stereo not given), the inhibition is inactive: 4.69%. Under `CCOC(=O)Nc1ccc([As](=O)(O)O)c(O)c1` stands inactive: -8.35%; under `Cc1cc(SC(NC(=O)c2ccccc2)C(Cl)(Cl)Cl)nc(C(C)C)n1` (stereo not given), inactive: -7.22%. Under `CCOC(=O)Nc1cccc([As](=O)(O)O)c1` stands inactive: 6.31%. For `O=P(Nc1ccccn1)(c1cccc2ccccc12)c1cccc2ccccc12`, the inhibition is inactive: 3.94%. Under `Cc1cc(SC(NC=O)C(Cl)(Cl)Cl)ncn1` (stereo not given) stands inactive: -2.12%; under `O=[N+]([O-])c1ccc(Nc2ccc(Oc3ccc([N+](=O)[O-])cc3[N+](=O)[O-])cc2)c([N+](=O)[O-])c1`, inactive: -25.3%. Take `C[As](=O)(O)c1cccc(C(=O)O)c1`: the inhibition is inactive: -4.68%. Under `O=[As](O)(c1ccc(O)cc1)c1ccccc1O` stands inactive: -1.17%. To `Cc1ccc(OP(=O)(Nc2ccc([N+](=O)[O-])cn2)Oc2ccc(C)cc2)cc1` belongs inactive: -16.4%; to `Cc1ccc2nc3c(c(C)c2c1)CC(C(Cl)Cl)S3` (stereo not given), inactive: -2.46%. `ClCCSc1nnc(-c2cccnc2)o1`: the inhibition was inactive: -0.955%. Turning to `CC(C)c1ccc(OP(=O)(Nc2ccccn2)Oc2ccccc2F)cc1` (stereo not given), the inhibition is inactive: 1.31%. To `CC(C)NC(=O)NP(=O)(Oc1ccccc1)Oc1ccccc1` belongs inactive: 4.57%. As for `CCN(CC)C(=S)SC(NC=O)C(Cl)(Cl)Cl` (stereo not given), the inhibition was inactive: -0.357%. To `O=[N+]([O-])c1cc([N+](=O)[O-])c(-c2ccn[nH]2)s1` belongs inactive: -23.9%; to `Cc1c2c(nc3ccccc13)SC(C(Cl)Cl)C2` (stereo not given), inactive: -8.91%; to `O=C(OC1CN2CCC1CC2)C12CC3CC(CC(C3)C1)C2` (stereo not given), inactive: 9.63%. To `Cc1cc(=O)[nH]c(N[N+](=O)[O-])n1` belongs inactive: -5.3%; to `COc1ccc2nc(NP(=O)(c3ccccc3)c3ccccc3)sc2c1`, inactive: -1.64%; to `COc1cc(I)ccc1[As](=O)(O)O`, inactive: -2.76%. To `COc1ccc(N/C(=N/P(=O)(N2CCOCC2)N2CCOCC2)N2CCOCC2)cc1` belongs inactive: 2.63%.
